Reference: the supplement of paper PMC3578754
Fold change is the IC50 on the isolate divided by the IC50 on a reference virus; 1 = unchanged, higher = more resistant. Changes are given against the subtype B consensus. No active / inactive call. The values were gathered from many studies (numbered anew) with different assays, which the source does not name. Most viruses are clinical isolates; some are laboratory strains or clones with known resistance changes. Isolates with mixed residues are left out; stretches that were not sequenced show no change. Round top values that many isolates share are read here as limits; other very high values and 0.1 may be limits too.

How the values were obtained:
Test in all cases: fold change of IC50 against reference virus; higher = more resistant
[1] = compound: CC(C)Nc1cccnc1N1CCN(C(=O)c2cc3cc(NS(C)(=O)=O)ccc3[nH]2)CC1 [delavirdine]
Method: (§1)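 Cell-culture drug susceptibility tests of virus bearing the reverse transcriptase of each isolate, gathered from many studies.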

[2] = compound: Cc1ccnc2c1NC(=O)c1cccnc1N2C1CC1 [nevirapine]
Method: as §1

[3] = compound: O=C1Nc2ccc(Cl)cc2[C@@](C#CC2CC2)(C(F)(F)F)O1 [efavirenz]
Method: as §1

Test System | fold change of IC50 against reference virus [1] | fold change of IC50 against reference virus [2] | fold change of IC50 against reference virus [3]
HIV-1 isolate 398 (reverse transcriptase changes: V35T T39L K103N K122E D123G A158S K173S Q174K D177E I178V V179I T200A I202V Q207A V245M K277R L282C R284K T286V I293V, study 14) | 50 | 29 | 17
HIV-1 isolate 409 (reverse transcriptase changes: L74V K102Q S162C G190V K277R I293V, study 55) | 0.1 | 600 | 270
HIV-1 isolate 413 (reverse transcriptase changes: E6D V35T V60I K122E D123S I135T K166R K173L Q174K D177E I178M V179I E194D G196E Q207A R211S V245M D250E K277R T286A E291D I293V P294T E312D, study 14) | 0.4 | 0.6 | 0.5
HIV-1 isolate 416 (reverse transcriptase changes: K102Q S162C M230L K277R, study 70) | 58 | 39 | 23
HIV-1 isolate 417 (reverse transcriptase changes: K102Q S162C P236L K277R, study 53) | 53 | 2 | 1
HIV-1 isolate 445 (reverse transcriptase changes: K102Q K103N S162C G190A K277R, study 110) | 37 | 500 | 213
HIV-1 isolate 494 (reverse transcriptase changes: K102Q K103N S162C Y181C K277R, study 110) | ≥ 250 | 500 | 31
HIV-1 isolate 503 (reverse transcriptase changes: K102Q S162C I178V V179D K277R I293V K347R R358K V435I S468P, study 111) | 3.9 | 2.1 | 3.4
HIV-1 isolate 506 (reverse transcriptase changes: A98G K102Q S162C K277R, study 53) | 3 | 8 | 3
HIV-1 isolate 533 (reverse transcriptase changes: V35T V60I D121H K122E I135T K173L Q174K D177E V179I Y181C T200A Q207A R211S V245K D250E T286A E291D V292I I293V E312D I326V, study 14) | 70 | 200 | 1.4
HIV-1 isolate 572 (reverse transcriptase changes: K11T K20R V21I V35T T39K K43E D123N K173T Q174K D177E V179I G190A I202V Q207A R211S V245Q E248D T286A E291D V292I I293V P294Q E312D, study 14) | 0.3 | 208 | 6.5
HIV-1 isolate 582 (reverse transcriptase changes: K102Q V108I S162C K277R, study 110) | 1.3 | 3 | 1.7
HIV-1 isolate 592 (reverse transcriptase changes: K11T K20R V21I V35T T39K V60I K122E D123N K173A D177G V179I Y181C T200A I202V Q207A R211K V245Q E248D T286A E291D V292I I293V P294T E312D, study 14) | 21 | 122 | 0.8
HIV-1 isolate 594 (reverse transcriptase changes: K20R V35I I50V V60I K65R S68R K73L L74V V75A K101Q K102R K122E D123N I135V Q151M I178V M184V G190V I195T G196E K219E V276I Q278E A288S E297R, study 55) | 0.1 | 600 | 270
HIV-1 isolate 646 (reverse transcriptase changes: K101E K102Q V108I S162C G190A K277R, study 53) | 200 | 680 | 270
HIV-1 isolate 649 (reverse transcriptase changes: K101E K102Q S162C K277R, study 110) | 4.9 | 11.6 | 5

Test System | fold change of IC50 against reference virus [1] | fold change of IC50 against reference virus [2] | fold change of IC50 against reference virus [3]
HIV-1 isolate 656 (reverse transcriptase changes: K20R V35T V60I D121H K122E I135T K173L Q174K D177E T200A Q207A R211S V245K D250E T286A E291D V292I I293V E312D A327V, study 14) | 1.3 | 1 | 1.5
HIV-1 isolate 658 (reverse transcriptase changes: K11T K20R V21I V35T K122E D123N K173S D177G V179I Y181C T200A I202V Q207A R211S V245Q E248C V261I T286A E291D V292I I293V P294T E312D I329V, study 14) | 44 | 208 | 1.3
HIV-1 isolate 672 (reverse transcriptase changes: K11T K20R V21I V35T T39K V60I K103N K122E D123N K173A D177G V179I G196E T200A I202V Q207A V245Q E248D T286A E291D I293V P294T K311R E312D, study 14) | 25 | 16 | 9.5
HIV-1 isolate 726 (reverse transcriptase changes: D67N K70R K122E I178M G196E R211K K219Q, study 25) | 3 | 1.6 | 0.8
HIV-1 isolate 727 (reverse transcriptase changes: A98G K102Q S162C G190S K277R, study 53) | 1 | 680 | 270
HIV-1 isolate 749 (reverse transcriptase changes: K102Q S162C Y181C G190A K277R, study 53) | 20 | 680 | 12
HIV-1 isolate 773 (reverse transcriptase changes: K102Q S162C G190S K277R I293V, study 55) | 0.3 | 191 | 56
HIV-1 isolate 864 (reverse transcriptase changes: M41L L74I K102Q S162C Y181C M184V L210W R211K T215Y L228R M230L K277R I293V T296S, study 70) | 161 | 600 | 5.3
HIV-1 isolate 939 (reverse transcriptase changes: K102Q V106A S162C K277R, study 110) | 5 | 64 | 1.7
HIV-1 isolate 955 (reverse transcriptase changes: A98G K102Q S162C Y181C K277R, study 53) | 190 | 680 | 7
HIV-1 isolate 965 (reverse transcriptase changes: K102Q K103N S162C K277R, study 110) | 52 | 55 | 26
HIV-1 isolate 1056 (reverse transcriptase changes: V35T E40D I50V K122E D123S I135T I142T K173S D177E V179I Q207A R211S F214L V245Q A272P E291D I293V P294T L310I E312D D324E, study 14) | 0.2 | 0.3 | 0.2
HIV-1 isolate 1217 (reverse transcriptase changes: K11T K20R V21I V35T T39K V60I K122E D123N K173S D177G V179I G190A T200A I202V Q207A V245Q E248D T286A E291D I293V P294T E312D, study 14) | 0.1 | 51 | 2.2
HIV-1 isolate 1225 (reverse transcriptase changes: K102Q S162C G190C K277R I293V, study 55) | 0.1 | 170 | 170
HIV-1 isolate 1237 (reverse transcriptase changes: L100I K102Q K103N S162C K277R, study 53) | 190 | 69 | 680
